Taken from: PubChem BioAssay AID624099 (ICCB-Longwood, 2012)

- Assay: 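Human genes that papillomavirus E2 requires to repress the HPV18 LCR promoter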 (primary screen)
- Cell system: human C33A cervical carcinoma cells (HPV-negative) stably expressing BPV1 E2 and an HPV18 LCR luciferase reporter
- Reagents: siRNA pool against human genes, 40 nM
- Duration: 72 h
- Measurement: 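Per-well luciferase luminescence, z-scored on each plate against the plate mean and SD with control wells left out, then averaged across three replicate plates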
- Direction: mean z-score and z-score: higher = stronger reporter signal, weaker E2 silencing
- Hit rule: 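Hit if mean z-score reaches 2 and two or more of three replicate z-scores also reach 2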
In all, the deposit lists about 21,000 reagents; shown is a part drawn at random. 497 of them (2.4%) were called active. 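Higher z means weaker E2 silencing; only reporter increases were scored, and knock-downs that hurt cell survival may mask genuine repressor factors.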 Unmarked entries are inactive. No sequences are given here.

no.	target gene	mean z-score	z-score, replicate A	z-score, replicate B	z-score, replicate C
1	RNF220	-0.17	-0.07	-0.07	-0.38
2	STXBP2	-0.61	-0.61	-0.62	-0.6
3	RPS19BP1	-0.75	-0.75	-0.83	-0.68
4	TIAM2	-0.05	0.1	-0.02	-0.22
5	C6orf163	0.47	0.19	0.76	0.98
6	UNQ5810 (retired record)	0.3	0.5	0.03	0.38
7	SPG11	0.23	-0.23	0.71	0.23
8	GABRA1	0.8	0.76	0.68	0.95
9	FGL1	-0.6	-0.68	-0.63	-0.49
10	LMO4	0.14	0.28	0.11	0.02

Next part; the last 2 above are carried over.
no.	target gene	mean z-score	z-score, replicate A	z-score, replicate B	z-score, replicate C
9	FGL1	-0.6	-0.68	-0.63	-0.49
10	LMO4	0.14	0.28	0.11	0.02
11	DLX4	-0.48	-0.02	-0.68	-0.74
12	ZNF281	-0.4	-0.36	-0.77	-0.05
13	RAB7B	1.02	0.95	0.99	1.12
14	MAGEB6B	0.24	0.48	0.37	-0.13
15	IRGM	-0.14	0.03	-0.33	-0.12
16	BRIX1	-1.14	-0.29	-1.02	-2.1
17	ARFGAP2	0.13	0.32	0.18	-0.1
18	C14orf181 (retired record)	-0.02		-0.29	0.24
19	AP2M1	-0.25	-0.71	0.03	-0.06
20	TMEM107	1.18	0.96	1.1	1.47
21	TMEM114	-0.14	0.2	-0.05	-0.58
22	KMT5C	-1.1	-1.11	-1.09	-1.09
23	C1orf50	-0.53	-0.51	-0.51	-0.56
